This data set has as its target T1, Fur (ferric uptake regulator) (UniProt A0A0H3NJ13).
T1 sequence (looked up, limits assumed): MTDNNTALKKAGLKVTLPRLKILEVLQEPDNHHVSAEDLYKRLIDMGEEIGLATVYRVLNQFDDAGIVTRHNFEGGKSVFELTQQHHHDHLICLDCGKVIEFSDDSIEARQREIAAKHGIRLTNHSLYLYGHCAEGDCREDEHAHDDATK
In words: EMSA. To be noted: Mn2+, apparent Kd, protein for 50% complex; EMSA: 10 mM Bis-Tris/borate pH 7.5, 5% glycerol, 1 mM MgCl2, 40 mM KCl, 100 ug/ml BSA, 0.2 mg/ml salmon sperm DNA, 100 uM MnCl2, 20 nM probe, 10 min 37 C; recombinant protein; protein details: His tag of pET15b removed by thrombin; label: DIG; probe letters rebuilt from the primers and the genome. For orientation: Mobility shift assays separate free from complexed probe on a gel.

Construct, isoform or probe ends are uncertain for at least one entry. Where a protein sequence is shown, tags need not be part of it.

As for “GCAGCAGATTACCGCACAGGACACAGGGATTCCTGATGAAAATAGAATGAAAAGTGAGAAATAAAATCAATTTATTCTGTATAATGCGTCTCAACACATATTAAAAGAACCATCATCCCCATTGGGGCTTAAACTACTGTAGATAAATTACCCAAATTTGGGTTCTTTTGGTGTAACAATCAGACCATTGCCAACACACGCTAATAAAGAGCATTTACAACTCAGATTTTTTCAGTAGGATACCAGTAAGGAACATTAAAATAACATCAACAAAGGGATAATATGGAAAATGTAACCTTTGTAAGTAATAGTCATCAGCGTCCTGCCGCAGATAACT (double strand) [FrgA (PhilD)]”, the Kd was determined as 4.5 nM.

For the origin of these results see publication PMC3089636.
